A mixed list of measured activities; the numbers were collected in NIAID ChemDB.

Common to all: enzyme or target tests; organism: HIV-1; protein: Reverse transcriptase

An empty or dashed field is not shown. a–b is a range or a potency band. Conditions beyond the fields shown may differ between rows. ICn is the concentration giving n% inhibition.

structure,strain or isolate,method,read-out,mutations,result
CCN1c2ncc(CCOc3ccc(CCC(=O)O)c4c3CCCC4)cc2C(=O)N(C)c2ccc(Cl)nc21,WT,nucleotide incorporation / radiometric,IC50,,<0.1 µM
CC(C)(C#Cc1ccc(NC(=O)CSc2nnnn2-c2ccc(C3CC3)cc2Cl)c(Cl)c1)NC(=O)OC(C)(C)C,,PicoGreen / fluorescence,IC50,RT-K103 Y181C,<1 µM
N#Cc1cc(Cl)cc(Oc2cc(Cl)cc(OCC(=O)Nc3ccc4[nH]cnc4c3Cl)c2)c1,,nucleotide incorporation / radiometric,IC50,,<20 µM
COc1ccc(OC)c(C/C=C(\C)CC/C=C(\C)CC/C=C(\C)CC/C=C(\C)CC/C=C(\C)CCC=C(C)C)c1,,nucleotide incorporation,IC50,,23.5 µM
CCN1c2ncc(CCc3ccncc3)cc2C(=O)N(C)c2ccc(F)nc21,,nucleotide incorporation / radiometric,IC50,RT-Y181C,<1 µM
O=C1OCC2OC(=O)c3cc(O)c(O)c(O)c3-c3c(O)c(O)c(O)c4c3C(=O)OC(C2OC(=O)c2cc(O)c(O)c(O)c2-c2c1cc(O)c(O)c2O)C1OC(=O)c2c-4c(O)c(O)c(O)c2[C@H]1O,,nucleotide incorporation,IC50,,>20 µg/mL
CCN1c2ncc(/C=C\c3cn[nH]c3)cc2C(=O)Nc2c(C)ccnc21,,nucleotide incorporation / radiometric,IC50,RT-Y181C,>1 µM
CCN1c2ncc(CCOc3ccc(CC(C)C(=O)O)c4ccccc34)cc2C(=O)Nc2c(C)ccnc21,,nucleotide incorporation / radiometric,IC50,RT-V106A,>1 µM
CC(C)(C#Cc1ccc(NC(=O)CSc2nnnn2-c2cccc(Cl)c2Cl)c(Cl)c1)C(=O)O,WT,PicoGreen / fluorescence,IC50,,<1 µM
NC(=O)c1[nH]c2ccc(Cl)cc2c1S(=O)(=O)c1ccccc1,WT,nucleotide incorporation / radiometric,Ki,,0.0003 µM
O=C(CSc1nnnn1-c1ccc(C2CC2)cc1Cl)Nc1ccc(C(=O)NCc2cc[n+]([O-])cc2)cc1Cl,,PicoGreen / fluorescence,IC50,RT-K103 Y181C,<1 µM
CCN1c2ncccc2C(=O)N(C)c2ccc(-c3cccn3C(C)=O)nc21,WT,nucleotide incorporation / radiometric,IC50,,<1 µM
CCN1c2ncc(CCOc3cccc4c3CNC(=O)N4)cc2-c2nccn2-c2c(C)ccnc21,,nucleotide incorporation / radiometric,IC50,RT-K103N Y181C,<0.05 µM
CC(C)(C#Cc1ccc(NC(=O)CSc2nnnn2-c2ccc(C3CC3)cc2Cl)c(Cl)c1F)OCCOc1ccncc1,,PicoGreen / fluorescence,IC50,RT-K103 Y181C,<1 µM
CCN1c2ncc(CCOc3cccc4c3CN(C)C(=O)N4C)cc2-c2ncc(C)n2-c2cccnc21,,nucleotide incorporation / radiometric,IC50,,<0.05 µM
CCN1c2ncc(CCc3cccc(O)c3)cc2C(=O)N(C)c2cccnc21,WT,nucleotide incorporation / radiometric,IC50,,<1 µM
CC(C)=CCN1Cc2cccc3[nH]c(=S)n(c23)C[C@@H]1C,,nucleotide incorporation,IC50,RT-Y181C,2.01 µM
O=C(CSc1nnnn1-c1ccc(C2CC2)cc1Cl)Nc1ccc(C(=O)NCc2cccc[n+]2[O-])cc1Cl,WT,PicoGreen / fluorescence,IC50,,<1 µM
Cc1cc(C)cc(S(=O)(=O)c2c(C(N)=O)[nH]c3ccc(Cl)cc23)c1,,nucleotide incorporation / radiometric,IC50,RT-K103N,0.003 µM
CCN1c2ncccc2C(=O)N(C)c2ccc(-c3cc4cc(OC)ccc4[nH]3)nc21,WT,nucleotide incorporation / radiometric,IC50,,<1 µM
CN1C(=O)c2cc(CCc3ccncc3)cnc2N(C2CC2)c2nc(Cl)ccc21,WT,nucleotide incorporation / radiometric,IC50,,<1 µM
CCN1c2ncccc2C(=O)N(C)c2ccc(-c3c[nH]c(C(N)=O)c3)nc21,WT,nucleotide incorporation / radiometric,IC50,,<1 µM
O=C1OC2[C@@H](CO)O[C@@H](OC(=O)c3cc(O)c(O)c(O)c3)[C@H](OC(=O)c3cc(O)c(O)c4c3[C@@H]3C1=CC(=O)C(O)(O)C3(O)O4)[C@H]2O,,nucleotide incorporation,IC50,,>20 µg/mL
CN1CCC[C@H]1C(=O)NC(C)(C)C#Cc1ccc(NC(=O)CSc2nnnn2-c2ccc(C3CC3)cc2Cl)c(Cl)c1,WT,PicoGreen / fluorescence,IC50,,<1 µM
CCc1cc(CCc2nc3ccccc3o2)c(=O)[nH]c1C,,nucleotide incorporation,IC50,RT-Y181I,>296.4 µM
CC1(C)CC[C@]2(C(=O)O)CC[C@]3(C)C(=CC[C@@H]4[C@@]5(C)C[C@@H](O)[C@@H]6OC(=O)c7cc(O)c(O)c(O)c7-c7c(cc(O)c(O)c7O)C(=O)OC[C@@]6(CO)[C@@H]5CC[C@]43C)[C@@H]2C1,,nucleotide incorporation,IC50,,>20 µg/mL
CCN1c2ncc(CCOc3ccc(C(=O)O)c4c3CCCC4)cc2-c2ncc(C)n2-c2cccnc21,,nucleotide incorporation / radiometric,IC50,RT-K103N Y181C,>0.1 µM
CC(C)(C)c1ccc(-n2nccc2SCC(=O)Nc2ccc(-c3ccc(CC(=O)O)cc3)cc2Cl)c(Cl)c1,,PicoGreen / fluorescence,IC50,RT-K103 Y181C,<1 µM
N#Cc1cc(Cl)cc(Oc2cc(OCC(=O)Nc3ccncc3C(F)(F)F)ccc2Cl)c1,,nucleotide incorporation / radiometric,IC50,,<20 µM
CCN1c2ncc(CCOc3ccc(CCC(=O)O)c4c3CCCC4)cc2C(=O)N(C)c2cccnc21,,nucleotide incorporation / radiometric,IC50,RT-V106A,>1 µM
N#Cc1cc(Cl)cc(Oc2cc(OCC(=O)Nc3ccc(S(N)(=O)=O)cc3Cl)ccc2Cl)c1,,nucleotide incorporation / radiometric,IC50,,<20 µM
CCN1c2ncc(CCOc3cccc4c3CNC(=O)N4)cc2-c2nc(C)cn2-c2cccnc21,,nucleotide incorporation / radiometric,IC50,,<0.05 µM
CC(C)(C)c1ccc(-n2nnnc2SCC(=O)Nc2ccc(C#CCN3CCOCC3)cc2Cl)c(Cl)c1,,PicoGreen / fluorescence,IC50,RT-K103 Y181C,<1 µM
CCN1c2ncc(CCOc3ccc(S(=O)(=O)NC(C)=O)c4ccccc34)cc2C(=O)N(C)c2cccnc21,,nucleotide incorporation / radiometric,IC50,RT-K103N Y181C,0.1–1 µM
Cc1cc(C(F)(F)F)cc(-n2nnnc2SCC(=O)Nc2ccc(C#CC(C)(C)O)cc2Cl)c1Cl,WT,PicoGreen / fluorescence,IC50,,<1 µM
CCN1c2ncc(CCOc3ccc(C4CC4C(=O)O)c4ccccc34)cc2C(=O)N(C)c2ccc(F)nc21,,nucleotide incorporation / radiometric,IC50,RT-K103N Y181C,0.1–1 µM
O=C(COc1ccc(NC(=O)CSc2nnnn2-c2ccc(C3CC3)cc2Cl)c(Cl)c1)NCCc1cc[n+]([O-])cc1,,PicoGreen / fluorescence,IC50,RT-K103 Y181C,<1 µM
N#Cc1cc(Cl)cc(Oc2cc(Cl)cc(OCC(=O)Nc3ccc4nc[nH]c4c3)c2)c1,,nucleotide incorporation / radiometric,IC50,,<20 µM
CCN1c2ncccc2C(=O)N(C)c2ccc(-c3c[nH]c4ccccc34)nc21,,nucleotide incorporation / radiometric,IC50,RT-Y181C,<1 µM
CC(C)(C#Cc1ccc(NC(=O)CSc2nnnn2-c2ccc(C(C)(C)C)cc2Cl)c(Cl)c1F)C(=O)O,WT,PicoGreen / fluorescence,IC50,,<1 µM
NS(=O)(=O)c1ccc(NC(=O)COc2cc(Cl)cc(Oc3cncc(Br)c3)c2)c(Cl)c1,,nucleotide incorporation / radiometric,IC50,,<20 µM
CC(C)(C)c1ccc(-n2nnnc2SCC(=O)Nc2ccc(NC(=O)NCc3ccccc3)cc2Cl)c(Cl)c1,WT,PicoGreen / fluorescence,IC50,,<1 µM
CCN1c2ncc(CCOc3ccc(C(=O)O)cc3C)cc2-c2ncc(C)n2-c2cccnc21,,nucleotide incorporation / radiometric,IC50,RT-K103N Y181C,<0.05 µM
CCOC(=O)NC(C)(C)C#Cc1ccc(NC(=O)CSc2nnnn2-c2ccc(C3CC3)cc2Cl)c(Cl)c1,,PicoGreen / fluorescence,IC50,RT-K103 Y181C,<1 µM
CCN1c2ncc(CCOc3ccc(CCC(=O)O)c4ccccc34)cc2C(=O)N(C)c2ccc(F)nc21,WT,nucleotide incorporation / radiometric,IC50,,<0.1 µM
CC(C)(C)c1ccc(-n2nnnc2SCC(=O)Nc2ccc(NC(=O)C3CCCCC3)cc2Cl)c(Cl)c1,WT,PicoGreen / fluorescence,IC50,,<1 µM
CCN1c2ncccc2C(=O)N(C)c2ccc(-c3c[nH]c(C#N)c3)nc21,WT,nucleotide incorporation / radiometric,IC50,,<1 µM
CC1(C)CC[C@]2(C(=O)O[C@@H]3O[C@H](CO)[C@@H](O)[C@H](O)[C@H]3O)CC[C@]3(C)C(=CCC4[C@@]5(C)C[C@@H](O)[C@@H]6OC(=O)c7cc(O)c(O)c(O)c7-c7c(cc(O)c(O)c7O)C(=O)OC[C@@]6(CO)C5CC[C@]43C)C2C1,,nucleotide incorporation,IC50,,>20 µg/mL
CCCN1c2nc(-c3cn[nH]c3)ccc2NC(=O)c2cccnc21,,nucleotide incorporation / radiometric,IC50,RT-Y188L,>1 µM
O=C(OC[C@H]1O[C@@H](OC(=O)c2cc(O)c(O)c(O)c2)[C@H](OC(=O)c2cc(O)c(O)c(O)c2)[C@@H](OC(=O)c2cc(O)c(O)c(O)c2)[C@@H]1OC(=O)c1cc(O)c(O)c(O)c1Oc1cc2c(c(O)c1O)-c1c(cc(O)c(O)c1O)C(=O)OC[C@H]1O[C@@H](OC(=O)c3cc(O)c(O)c(O)c3)[C@H](OC(=O)c3cc(O)c(O)c(O)c3)[C@@H](OC(=O)c3cc(O)c(O)c(O)c3)[C@@H]1OC2=O)c1cc(O)c(O)c(O)c1,,nucleotide incorporation,IC50,,>20 µg/mL
Cc1cc(NC(=O)c2ccc(NC(=O)CSc3nnnn3-c3ccc(C(C)(C)C)cc3Cl)c(Cl)c2)ccc1/C=C/C(=O)O,WT,PicoGreen / fluorescence,IC50,,<1 µM
CCOC(=O)c1cc(-c2ccc3c(n2)N(CC)c2ncccc2C(=O)N3C)c[nH]1,,nucleotide incorporation / radiometric,IC50,RT-Y188L,>1 µM
Cc1ccc(-n2nnnc2SCC(=O)Nc2ccc(-c3ccc(CC(=O)NS(C)(=O)=O)cc3)cc2Cl)c(Cl)c1,WT,PicoGreen / fluorescence,IC50,,<1 µM
N#Cc1cc(Cl)cc(Oc2cc(OCc3[nH]nc4nc(N5CCOCC5)ccc34)ccc2Cl)c1,,nucleotide incorporation / radiometric,IC50,,<20 µM
CC(C)(C)c1ccc(-n2nnnc2SCC(=O)Nc2ccc(OCC(=O)NCC3CCC(C(=O)O)CC3)cc2Cl)c(Cl)c1,WT,PicoGreen / fluorescence,IC50,,<1 µM
Cc1cc(S(N)(=O)=O)ccc1NC(=O)COc1ccccc1C(=O)c1cc(Cl)cc(C#N)c1,NNRTI-resistant,nucleotide incorporation / radiometric,IC50,RT-Y188L,0.0679 µM
Cc1ccc(-n2nnnc2SCC(=O)Nc2ccc(-c3cnc[nH]3)cc2Cl)c(Cl)c1,,PicoGreen / fluorescence,IC50,RT-K103 Y181C,<1 µM
CCOC(=O)N1c2cccc(OCCc3cnc4c(c3)-c3nccn3-c3c(C)ccnc3N4CC)c2CS1(=O)=O,,nucleotide incorporation / radiometric,IC50,,<0.05 µM
CN(C)c1ccc(CC(=O)Nc2ccc(NC(=O)CSc3nnnn3-c3ccc(C(C)(C)C)cc3Cl)c(Cl)c2)cc1,,PicoGreen / fluorescence,IC50,RT-K103 Y181C,<1 µM
CS(=O)(=O)c1ccc(NC(=O)COc2cc(Cl)cc(Oc3cc(Cl)cc(C#N)c3)c2)c(Cl)c1,,nucleotide incorporation / radiometric,IC50,,<20 µM
CC(C)(C)c1ccc(-n2nnnc2SCC(=O)Nc2ccc(C(=O)NCCc3ccncc3)cc2Cl)c(Cl)c1,,PicoGreen / fluorescence,IC50,RT-K103 Y181C,<1 µM
O=C(OC[C@H]1O[C@@H](OC(=O)c2cc(O)c(O)c(O)c2)[C@H](OC(=O)c2cc(O)c(O)c(O)c2)[C@@H](OC(=O)c2cc(O)c(O)c(O)c2)[C@@H]1OC(=O)c1cc(O)c(O)c(O)c1)c1cc(O)c(O)c(O)c1,,nucleotide incorporation,IC50,,>20 µg/mL

Again, the opening 5 rows:

| structure | strain or isolate | method | read-out | mutations | result |
|---|---|---|---|---|---|
| CCN1c2ncc(CCOc3ccc(CCC(=O)O)c4c3CCCC4)cc2C(=O)N(C)c2ccc(Cl)nc21 | WT | nucleotide incorporation / radiometric | IC50 |  | <0.1 µM |
| CC(C)(C#Cc1ccc(NC(=O)CSc2nnnn2-c2ccc(C3CC3)cc2Cl)c(Cl)c1)NC(=O)OC(C)(C)C |  | PicoGreen / fluorescence | IC50 | RT-K103 Y181C | <1 µM |
| N#Cc1cc(Cl)cc(Oc2cc(Cl)cc(OCC(=O)Nc3ccc4[nH]cnc4c3Cl)c2)c1 |  | nucleotide incorporation / radiometric | IC50 |  | <20 µM |
| COc1ccc(OC)c(C/C=C(\C)CC/C=C(\C)CC/C=C(\C)CC/C=C(\C)CC/C=C(\C)CCC=C(C)C)c1 |  | nucleotide incorporation | IC50 |  | 23.5 µM |
| CCN1c2ncc(CCc3ccncc3)cc2C(=O)N(C)c2ccc(F)nc21 |  | nucleotide incorporation / radiometric | IC50 | RT-Y181C | <1 µM |